Results of unrelated studies side by side (data: NIAID ChemDB).

Shared fields: tests in culture; species: Aspergillus fumigatus; endpoint: MIC

Conditions beyond the fields shown may differ between rows.

| compound | strain or isolate | read by | value |
|---|---|---|---|
| CN[C@@H]1[C@H](O[C@@H]2OC[C@@H](O)[C@H](O)[C@H]2O)[C@@H](O)[C@H](O[C@H]2c3cc(C)c(C(=O)N[C@H](C)C(=O)O)c(O)c3-c3c(cc4c(c3O)C(=O)c3cc(OC)cc(O)c3C4=O)[C@@H]2O)O[C@@H]1C | IAM2530 |  | 1.6 µg/mL |
| CCCCCCCCCCCCCCCCCC(=O)NC(CCCN)C(=O)NC(CCCN)C(=O)NC(CCCN)C(=O)NC(CCCN)C(N)=O | ATCC 42203 | broth dilution | 1.5 µg/mL |
| CCOC(=O)c1sc2cc(-c3ccc(OC)cc3)oc(=O)c2c1N | AF-27 |  | >100 µg/mL |
| CCCCCCCCCCCCCCCCCC(=O)NC(CCCN)C(=O)NC(CCCN)C(=O)NC(CCCN)C(=O)NC(CCCN)C(=O)NC(CCCN)C(N)=O | ATCC 42203 | broth dilution | 3.1 µg/mL |
| Nc1ccc(S(=O)(=O)Nc2ccnn2-c2ccccc2)cc1 | IFM 47450 |  | 64 µg/mL |
| CCC(C)CC(C)CCCCCCCCC(=O)N[C@H]1C[C@@H](O)[C@H](NCCN)NC(=O)[C@@H]2[C@@H](O)CCN2C(=O)[C@H]([C@H](O)CCN)NC(=O)[C@H]([C@H](O)[C@@H](O)c2ccc(O)cc2)NC(=O)[C@@H]2C[C@@H](O)CN2C(=O)[C@H]([C@@H](C)O)NC1=O | ND231 | broth dilution | 0.125 µg/mL |
| C[C@@H](N1CCN(c2ccc(-n3cnnn3)cc2)C1=O)[C@](O)(Cn1cncn1)c1ccc(F)cc1F | IFO6344 |  | >64 µg/mL |
| O=c1c(OC2CCCC2)c(N2CCN(S(=O)(=O)NCc3ccccc3)CC2)cnn1-c1cccc(Cl)c1 | ND158 | broth dilution | 1.56 µg/mL |
| CCCCCCCCCCCCCCCCCC(=O)NC(CCCN)C(=O)NC(CCCN)C(N)=O | ATCC 42203 | broth dilution | 6.25 µg/mL |
| CCCCCOc1ccc(-c2ccc(-c3ccc(C(=O)N[C@H]4C[C@@H](O)[C@@H](O)NC(=O)[C@@H]5[C@@H](O)[C@@H](C)CN5C(=O)[C@H]([C@H](C)O)NC(=O)[C@H]([C@H](O)[C@@H](O)c5ccc(O)cc5)NC(=O)[C@@H]5C[C@@H](O)CN5C(=O)[C@H]([C@H](C)O)NC4=O)cc3)cc2)cc1 | 10AF |  | >100 µg/mL |
| CCC(C)CCCCCCC1CC(=O)NCC(=O)N[C@@H](CCCN)C(=O)N[C@@H](C(C)C)C(=O)N1 | IFM4942 |  | >80 µg/mL |
| C[C@@H](N1CCN(c2ccc(C(F)(F)F)cc2)C1=O)C(O)(Cn1cncn1)c1ccc(F)cc1F | IFO6344 |  | 1 µg/mL |
| Cc1cc(NS(=O)(=O)c2ccc(N)cc2)nc(C)n1 | IFM 48051 |  | ≥256 µg/mL |
| CCOC(=O)c1sc2cc(-c3ccc(F)cc3)oc(=O)c2c1N | AF-27 |  | >100 µg/mL |
| C[C@@H](N1CCN(c2ccc(OC(F)(F)F)cc2)C1=O)C(O)(Cn1cncn1)c1ccc(F)cc1F | 437 |  | 1 µg/mL |
| CCCCCCCCCC(=O)NC(CCCN)C(N)=O | ATCC 42203 | broth dilution | >100 µg/mL |
| CCOC(=O)c1sc(SC)cc1-c1ccc(F)cc1 | AF-27 |  | >100 µg/mL |
| CC(N1CCN(c2ccc(-n3cnnn3)cc2)C1=O)[C@](O)(Cn1cncn1)c1ccc(F)cc1F | IFO6344 |  | 0.5 µg/mL |
| CC(C)CCCCCCCCC1CC(=O)NCC(=O)N[C@@H](CCCN)C(=O)N[C@@H](C(C)C)C(=O)N1 | IFM41088 |  | >80 µg/mL |
| Cc1ccc(C(C)C)c(O)c1 | CECT2071 |  | 0.16 µg/mL |
| C[C@@H](n1ncn(-c2ccc(OCC(F)(F)C(F)F)cc2)c1=O)[C@](O)(Cn1cncn1)c1ccc(F)cc1F | 437 |  | 2 µg/mL |
| CSc1cc(-c2ccc(F)cc2)c(C(=O)O)s1 | AF-27 |  | >100 µg/mL |
| Cc1noc(NS(=O)(=O)c2ccc(N)cc2)c1C | IFM 53412 |  | 128 µg/mL |
| CSc1cc(-c2ccc(Cl)cc2)c(C(=O)O)s1 | AF-27 |  | >100 µg/mL |
| COc1ccc(NS(=O)(=O)c2ccc(N)cc2)nn1 | IFM 53412 |  | ≥256 µg/mL |
| C[C@@H](N1CCN(c2ccc(F)cc2)C1=O)C(O)(Cn1cncn1)c1ccc(F)cc1F | 437 |  | 8 µg/mL |

Repeating the final 2 entries:

compound,strain or isolate,read by,value
COc1ccc(NS(=O)(=O)c2ccc(N)cc2)nn1,IFM 53412,,≥256 µg/mL
C[C@@H](N1CCN(c2ccc(F)cc2)C1=O)C(O)(Cn1cncn1)c1ccc(F)cc1F,437,,8 µg/mL

Blank or dashed fields: not listed here.